# Source: patent US20050227956A1, “Control of mold growth on wood” (priority 2004, published 2005)
# Tested on: Alternaria alternata
# Assay: Six-well plate screening test
# Assay type: cell-based
substance,measurement,value
iron(III) dimethyldithiocarbamate [Ferbam],Minimum Inhibitory Concentrations (MIC),>100 mg/kg
